The record followed here is patent publication US5451518A, “Purified human ceramide-activated protein kinase” (Sloan-Kettering Institute for Cancer Research, priority 1992, dated 1995).

For this data set, the system named is ceramide-activated protein kinase.

For the substance cholera toxin [reference compound], the “effect on kinase activity (in words)” value is listed as “not stimulated”.
